Earlier results on one substance are cited in publication PMC1824706.

Amino acid sequences for entries named in this document (tags omitted). Residues count along the entry.
UniProt P13423, 30-196: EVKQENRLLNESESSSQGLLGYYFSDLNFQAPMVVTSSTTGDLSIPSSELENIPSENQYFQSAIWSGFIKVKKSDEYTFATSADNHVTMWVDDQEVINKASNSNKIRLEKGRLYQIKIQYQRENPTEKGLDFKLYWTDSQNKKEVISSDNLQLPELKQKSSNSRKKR

In general, Kd refers to the constant that tells how readily two partners part at equilibrium.

In the data set the target is Protective antigen (Bacillus anthracis) (UniProt P13423).

“Anthrax toxin receptor 1 I domain (from UniProt Q9H6X2)”: the equilibrium dissociation constant (Kd) is 130 nM.
